Results of unrelated studies side by side (data: NIAID ChemDB).

Shared fields: tests in culture; species: Mycobacterium tuberculosis

Blank or dashed fields: not listed here. ECn is the concentration giving n% inhibition of infection, replication or growth. MIC50, MIC90 and the like: level of inhibition, or share of isolates inhibited. Inhibition is in % at the dose shown (toxicity tests: loss of growth or viability). MIC bound: limit read from a one-dose screen. a–b is a range or a potency band. Conditions beyond the fields shown may differ between rows.

compound	strain or isolate	conditions	endpoint	read by	cells	dose	value
CCOC(=O)NC(=O)c1ccsc1NC(=O)c1nc2ccccc2s1	-	-	MIC99	turbidity	-	-	0.19 µg/mL
C[C@@H]1CCC2C(C)(C)CCC[C@]2(C)[C@@]12CCC(=O)O2	H37Rv	-	MIC	BACTEC	-	-	25 µg/mL
Nc1c(C(=O)Nc2ccccc2)[n+]([O-])c2ccccc2[n+]1[O-]	H37Rv	-	MIC	-	-	-	6.3 µg/mL
NC1CCN(c2nc3c(cc2F)c(=O)c(C(=O)O)cn3-c2ccc(F)cc2F)C1	H37Rv	-	MIC	-	-	-	16 µg/mL
COc1ccc(C(OC[C@H](O)CNCCNC[C@@H](O)COC(c2ccc(OC)c(OC)c2)c2ccc(OC)c(OC)c2)c2ccc(OC)c(OC)c2)cc1OC	H37Rv	-	MIC	-	-	-	12.5 µg/mL
O=CC(NC(=O)N(CCCl)N=O)C(O)C(O)C(O)CO	H37Rv	-	MIC	BACTEC	-	-	≥12.5 µg/mL
CCOC(=O)Nc1cc(NC(C)CC(C)CN(CC)CC)c2nc(-c3ccccc3)c(-c3ccccc3)nc2n1	H37Rv	-	MIC	-	-	-	0.15 µg/mL
CC(=O)O[C@H]1C2=C(C(=O)C(=O)C(C(C)C)=C2O)[C@@]2(C)CCCC(C)(C)[C@@H]2[C@@H]1C(=O)Oc1ccc([N+](=O)[O-])cc1	MDR	-	MIC100	MTT	-	-	25 µg/mL
CCCCCCCCCCCCCCCCCCCCCC(=O)OCCc1ccc(OC)cc1	H37Rv (ATCC 27294)	-	MIC	-	-	-	>128 µg/mL
NNC(=O)c1ccncc1	H37Rv (ATCC 27294)	-	MIC	resazurin	-	-	0.015 µg/mL
NC(=O)c1ncc[nH]c1=O	H37Rv	-	MIC	BACTEC	-	-	≥12.5 µg/mL
FC(F)(F)c1ccc2c(c1)NC(c1ccccn1)S2	H37Rv	-	MIC	-	-	-	1.6 µg/mL
Cc1ccc(-[n+]2c3cc(N)c(C)cc3nc3cc(C)c(Nc4ccccc4)cc32)cc1.O=S(=O)(O)O	H37Rv	-	MIC bound	BACTEC	-	-	>12.5 µg/mL
CCN1c2ccccc2SC1c1ccncc1	H37Rv	-	MIC	-	-	-	25 µg/mL
CC(C)c1c(O)c(O)c2c(c1O)C(=O)C(O)=C1C(C)(C)CCC[C@@]12C	H37Rv	-	MIC bound	BACTEC	-	-	>12.5 µg/mL
COc1ccccc1N1CCN(Cc2cc(C)n(NC(=O)c3cnccn3)c2-c2ccccc2)CC1	27294	-	MIC	-	-	-	>16 µg/mL
COc1cc(C[C@@H](C)[C@@H](C)Cc2ccc(O)c(OC)c2)ccc1O	H37Rv	-	MIC	resazurin	-	-	50 µg/mL
C/C(=N\NC(N)=S)c1ccccn1	H37Rv (ATCC 27294)	-	MIC	resazurin	-	-	31.3 µg/mL
Cc1c(CN2CCOCC2)cc(-c2ccccc2)n1NC(=O)c1ccncc1	27294	-	MIC	-	-	-	2 µg/mL
COc1cc(O)c2c(=O)cc(-c3ccc(O)cc3)oc2c1	Clinical isolates	multidrug-resistant	MIC	resazurin	-	-	>50 µg/mL
CC(=O)O[C@H]1C2=C(C(=O)C(C(=O)Oc3ccc(Cl)cc3)=C(C(C)C)C2=O)[C@@]2(C)CCCC(C)(C)[C@@H]2[C@@H]1O	MDR	-	MIC100	MTT	-	-	0.78 µg/mL
CN1CC(=O)N(CO)/C1=N/CO	H37Rv	-	inhibition	BACTEC	-	12.5 µg/mL	0%
c1cc2c[n+](c1)CCCCCCCCCCCCCCc1ccc[n+](c1)CCCCCCCCCC2	H37Rv	-	MIC	-	-	-	8 µg/mL
Cc1c(CN2CCN(c3ccccn3)CC2)cc(-c2ccc(Cl)cc2)n1NC(=O)c1cnccn1	27294	-	MIC	-	-	-	>16 µg/mL
O=S(=O)([O-])c1cc(N=Nc2cc(S(=O)(=O)[O-])c3ccccc3c2O)ccc1/C=C/c1ccc(N=Nc2cc(S(=O)(=O)[O-])c3ccccc3c2O)cc1S(=O)(=O)[O-].[Na+].[Na+].[Na+].[Na+]	H37Rv	-	MIC bound	BACTEC	-	-	>12.5 µg/mL
CC(=O)OC1=C(C(C)C)C(=O)C2=C(C1=O)[C@@]1(C)CCCC(C)(C)[C@@H]1[C@H](OC(C)=O)[C@H]2OC(C)=O	H37Rv	-	MIC100	MTT	-	-	25 µg/mL
CCn1cc(C(=O)O)c(=O)c2cnc(N3CCNCC3)nc21	H37Rv	-	MIC	-	-	-	128 µg/mL
CCc1nc2ccc(Cl)cn2c1C(=O)NCc1ccc(N2CCC(c3ccc(OC(F)(F)F)cc3)CC2)cc1	N0155	-	MIC50	turbidity	-	-	0.0026 µM
CCCCCCCCCCCCCCCCCCCCCCCCC(=O)OCCc1ccc(OC)cc1	H37Rv (ATCC 27294)	-	MIC	-	-	-	>128 µg/mL
Cc1cccnc1C1Nc2ccccc2S1	H37Rv	-	MIC	-	-	-	3.1 µg/mL
C=CC1=C(C)C(=O)N/C1=C\c1[nH]c(Cc2[nH]c(/C=C3/NC(=O)C(C(C)SC(C)=O)=C3C)cc2CCC(=O)O)c(CCC(=O)O)c1C	H37Rv	-	inhibition	BACTEC	-	12.5 µg/mL	-13%
O=[N+]([O-])c1ccc(CSc2nnc(-c3ccc([N+](=O)[O-])o3)s2)cc1	H37Rv	-	inhibition	-	-	6.25 µg/mL	99%
CC1SCC(=O)N1c1nncs1	H37Rv	-	MIC bound	BACTEC	-	-	>12.5 µg/mL
COC(=O)C1=CCC[C@H]2[C@](C)(CCC3=CC(=O)OC3O)[C@@H](C)CC[C@]12C	H37Rv	-	inhibition	-	-	12.5 µg/mL	0%
O=C1c2ccccc2-n2c1nc1ccccc1c2=O	H37Rv	-	MIC	BACTEC	-	-	0.4 µg/mL
NC1CCN(c2c(F)cc3c(=O)c(C(=O)O)cn(C4CC4)c3c2Cl)C1	21 strains	-	MIC90	-	-	-	1 µg/mL
O=C(O)c1ccc2c3c(ncnc13)-c1ccccc1C2=O	H37Rv	-	inhibition	BACTEC	-	128 µg/mL	100%
O=[N+]([O-])c1ccc(C2Nc3ccccc3S2)cc1	H37Rv	-	MIC	-	-	-	>200 µg/mL
CCn1cc(C(=O)O)c(=O)c2cc(F)c(N3CCNCC3)nc21	H37Rv	-	MIC	-	-	-	8 µg/mL
CC12C[C@H]3OC(=O)[C@@H]1COC14OC5([C@H]2C1=O)[C@@](O)(CC[C@H]1[C@H]4CC=C2CC=CC(=O)[C@@]21C)C(=O)O[C@@]35C	H37Rv	-	MIC	-	-	-	>128 µg/mL
c1cc2c[n+](c1)CCCCCCCCCCCCCCc1ccc[n+](c1)CCCCCCCCCCC2	H37Rv	-	MIC	-	-	-	8 µg/mL
COc1ccc(C2COc3cc(O)c(O)cc3C2)cc1	H37Rv	-	inhibition	BACTEC	-	12.5 µg/mL	16%
CC(C)C1=C(O)C2=C(C(=O)C1=O)[C@@]1(C)CCCC(C)(C)C1[C@H](O)[C@H]2O	H37Rv	-	MIC100	MTT	-	-	>25 µg/mL
Nc1n[nH]c(=O)c2cccnc12	H37Rv	-	MIC bound	BACTEC	-	-	>12.5 µg/mL
CCCCCCCCCCCCCCCCCCCCCCCC(=O)OCCc1ccc(O)cc1	H37Rv (ATCC 27294)	-	MIC	-	-	-	64 µg/mL
CC1CCc2cc(F)cc3c(=O)c(C(=O)O)cn1c23	H37Rv	-	MIC	-	-	-	64 µg/mL
COc1cc(/C=C2\CC/C(=C\c3ccc(OCCCN4CCCC4)c(OC)c3)C2=O)ccc1OCCCN1CCCC1	H37Rv	-	MIC99	visual reading	-	-	25 µM
CC(=O)O[C@H]1C2=C(C(=O)C(=O)C(C(C)C)=C2O)[C@@]2(C)CCCC(C)(C)[C@@H]2[C@@H]1O	MDR	-	MIC100	MTT	-	-	3.12 µg/mL
CC(=O)/C=C(/C)O	H37Rv (ATCC 27294)	-	MIC	resazurin	-	-	>50 µg/mL
CCOC(=O)Nc1nc(N)c2c(n1)NCCC(c1ccccc1)=N2	H37Rv	-	MIC	-	-	-	6.25 µg/mL
CC[C@@H](CO)NCCN[C@@H](CC)CO	20 strains	-	MIC50	-	-	-	0.125 µg/mL
CC(=O)N=C1C=C(NC(C)=O)C(=O)c2ccccc21	H37Rv	-	inhibition	BACTEC	-	12.5 µg/mL	99%
C[C@@H]1CN(c2c(F)c(N)c3c(=O)c(C(=O)O)cn(C4CC4)c3c2F)C[C@H](C)N1	H37Rv	-	MIC	-	-	-	0.25 µg/mL
O=C1C=C(Nc2cccc(NC3=CC(=O)C(=O)c4ccccc43)n2)c2ccccc2C1=O	H37Rv	-	MIC bound	resazurin	-	-	<6.25 µg/mL
c1cc2c[n+](c1)CCCCCCCCCCCCc1ccc[n+](c1)CCCCCCCCCCCC2	H37Rv	-	MIC	-	-	-	8 µg/mL
[O-][n+]1ccccc1C1Nc2ccccc2S1	H37Rv	-	MIC	-	-	-	6.25 µg/mL
NC(=O)c1cnccn1	20 strains	-	MIC90	-	-	-	100 µg/mL
CCCCCCCCCCCC1Nc2ccccc2S1	H37Rv	-	MIC	-	-	-	100 µg/mL
O=C(O)c1ccccc1	H37Rv	-	inhibition	BACTEC	-	12.5 µg/mL	0%
CCN(CC)CCCCOc1ccc(/C=C2\CC/C(=C\c3ccc(OCCCCN(CC)CC)cc3)C2=O)cc1	H37Rv	-	MIC99	visual reading	-	-	6.25 µM
CO/N=C1\CN(c2nc3c(cc2F)c(=O)c(C(=O)O)cn3C2CC2)CC1CN	H37Rv	-	MIC	-	-	-	4 µg/mL
COc1ccc2c(c1)[n+](=O)c(C(=O)C/C(=N/NC(=O)c1ccccc1O)C(=O)Nc1ccc(Cl)c(C(F)(F)F)c1)c(C)n2[O-]	H37Rv	-	MIC bound	BACTEC	-	-	>12.5 µg/mL
CC(=O)O[C@H]1C2=C(C(=O)C(C(=O)Oc3ccc([N+](=O)[O-])cc3)=C(C(C)C)C2=O)[C@@]2(C)CCCC(C)(C)[C@@H]2[C@@H]1O	MDR	-	MIC100	MTT	-	-	3.12 µg/mL
COc1cc(/C=C2\CC/C(=C\c3ccc(OCCCN4CCC(C)CC4)c(OC)c3)C2=O)ccc1OCCCN1CCC(C)CC1	H37Rv	-	MIC99	visual reading	-	-	6.25 µM
NNC(=O)c1ccncc1	ATCC 25177	-	MIC	BACTEC / broth dilution / radiometric	-	-	0.1 µg/mL
CCS(=O)c1nnc(-c2ccc([N+](=O)[O-])o2)s1	H37Rv	-	MIC	-	-	-	1.56 µg/mL
C[N+](C)(C)C(Cc1ccccc1)C(=O)[O-]	-	-	EC50	-	VERO	-	>64 µg/mL
Clc1ccc2c(c1)NC(c1ccncc1)S2	H37Rv	-	MIC	-	-	-	12.5 µg/mL
CC[C@H]1OC(=O)[C@H](C)[C@@H](O[C@H]2C[C@@](C)(OC)[C@@H](O)[C@H](C)O2)[C@H](C)[C@@H](O[C@@H]2O[C@H](C)C[C@H](N(C)C)[C@H]2O)[C@](C)(O)C[C@@H](C)CN(C)[C@H](C)[C@@H](O)[C@]1(C)O	20 strains	-	MIC50	-	-	-	>128 µg/mL
CCOc1cc(/C=C2\CC/C(=C\c3ccc(OCCCN4CCCCC4)c(OCC)c3)C2=O)ccc1OCCCN1CCCCC1	H37Rv	-	MIC99	visual reading	-	-	12.5–25 µM
CCCCCc1cc(/C=C2/N=C(c3ccc[nH]3)C=C2OC)[nH]c1C	H37Rv	-	MIC	BACTEC	-	-	3.2 µg/mL
COC(=O)c1c(C)cc(O)c(C)c1O	H37Rv (ATCC 27294)	-	MIC	-	-	-	>128 µg/mL
c1cc2c[n+](c1)CCCCCCCCCCCCCc1ccc[n+](c1)CCCCCCCCCCCC2	H37Rv	-	MIC	-	-	-	8 µg/mL
CCCCCCCCCCCCCCCCCC(=O)OCCc1ccc(OC)cc1	H37Rv (ATCC 27294)	-	MIC	-	-	-	>128 µg/mL
CC(C)(C)OC(=O)N[C@@H](Cc1ccccc1)C(=O)OCN1C(=O)C2C(C1=O)C1C2[C@@H]2C=C[C@H]1C1C(=O)N(COC(=O)[C@H](Cc3ccccc3)NC(=O)OC(C)(C)C)C(=O)C12	H37Rv	-	MIC bound	resazurin	-	-	>6.25 µg/mL
NNC(=O)c1ccccc1	Mtb 352	-	MIC	-	-	-	1 µg/mL
CCSc1nnc(-c2ccc([N+](=O)[O-])o2)s1	H37Rv	-	MIC	-	-	-	0.78 µg/mL
COC(=O)NC1C(C)OC(OC2C/C=C(\C)C3C=C[C@H]4C(OC5CC(OC6CCC(OC7CC(O)C(OC8CCC(O)C(C)O8)C(C)O7)C(C)O6)C(OC(C)=O)C(C)O5)C(C)CC(C)[C@@H]4[C@@]3(C)C([O-])=C3C(=O)OC4(CC(C=O)=CC(O)[C@@H]4/C=C\2C)C3=O)CC1(C)[N+](=O)[O-].[Na+]	H37Rv	-	MIC	BACTEC	-	-	>4 µg/mL
N#Cc1c(Nc2ccccc2)[n+]([O-])c2ccc(Cl)cc2[n+]1[O-]	H37Rv	-	EC50	-	-	-	<12.5 µg/mL
O=[N+]([O-])c1ccc(-c2nnc(SCc3ccccc3)s2)o1	H37Rv	-	inhibition	-	-	6.25 µg/mL	11%

For reference, 8 entries again:

Clc1ccc2c(c1)NC(c1ccncc1)S2 ; strain or isolate: H37Rv ; endpoint: MIC ; value: 12.5 µg/mL
O=C1c2ccccc2-n2c1nc1ccccc1c2=O ; strain or isolate: H37Rv ; endpoint: MIC ; read by: BACTEC ; value: 0.4 µg/mL
c1cc2c[n+](c1)CCCCCCCCCCCCc1ccc[n+](c1)CCCCCCCCCCCC2 ; strain or isolate: H37Rv ; endpoint: MIC ; value: 8 µg/mL
CCN(CC)CCCCOc1ccc(/C=C2\CC/C(=C\c3ccc(OCCCCN(CC)CC)cc3)C2=O)cc1 ; strain or isolate: H37Rv ; endpoint: MIC99 ; read by: visual reading ; value: 6.25 µM
CCSc1nnc(-c2ccc([N+](=O)[O-])o2)s1 ; strain or isolate: H37Rv ; endpoint: MIC ; value: 0.78 µg/mL
CCOC(=O)Nc1cc(NC(C)CC(C)CN(CC)CC)c2nc(-c3ccccc3)c(-c3ccccc3)nc2n1 ; strain or isolate: H37Rv ; endpoint: MIC ; value: 0.15 µg/mL
c1cc2c[n+](c1)CCCCCCCCCCCCCc1ccc[n+](c1)CCCCCCCCCCCC2 ; strain or isolate: H37Rv ; endpoint: MIC ; value: 8 µg/mL
CC(=O)O[C@H]1C2=C(C(=O)C(=O)C(C(C)C)=C2O)[C@@]2(C)CCCC(C)(C)[C@@H]2[C@@H]1C(=O)Oc1ccc([N+](=O)[O-])cc1 ; strain or isolate: MDR ; endpoint: MIC100 ; read by: MTT ; value: 25 µg/mL